Test results taken from patent publication US20040039062A1, “Urea, ruminally synthesizable mainly to microbial crude protein” (Agri-Nutrients Technology Group, Inc., priority 2002, published 2004).

Test system: Fresh rumen fluid
Experiment: In-vitro urea conversion test: ruminal synthesis of urea to microbial crude protein (MCP) in rumen fluid
Design: species or system heifer
Method: A series of urea conversion in-vitro tests were arranged using the following materials: (1) Fresh rumen fluid withdrawn via a pump through a strainer from a heifer receiving no feed for the prior two days. (2) Simulated Saliva composition of E. I. McGougal in Biochemical Journal, Vol. 43, page 106. (3) Cellulose energy source, Whatman Chromedia Microgranular Cellulose, free from other nutrient compounds. […] The in-vitro tests were run with each sample in a 250 ml Erlenmeyer flask receiving the ingredients listed as follows: [table] The test flasks were placed in a constant temperature bath operating at 39° C. Carbon dioxide was used to displace the air in the flasks. Samples amounting to 10 grams were withdrawn on an accurate time schedule with the air in the sample container replaced by carbon dioxide. The samples were immediately treated with 1 percent mercuric chloride to terminate microbial activity in the samples. The samples were analyzed for total nitrogen, ammonia nitrogen, and […] by difference.

Compound: NC(N)=O [Test No. 6, urea]
- NH3 Conc. (8 hours): 0.087 Wt %
- Total N Content (8 hours): 0.09 Wt %
